Measurements reported in PubChem BioAssay AID504761 (Drosophila RNAi Screening Center, 2011).
In all, the deposit lists about 22,000 reagents; shown is an unselected part of those that have a named target and a result. In the full data, 116 (0.52%) got an active call. 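Calls depend on retest data that are not deposited; infection was ranked per plate without normalising between plates; the unit of the infection score is not given.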 Raw values vary from plate to plate and are shown uncorrected. Entries without a mark were called inactive. Reagents against one gene are numbered here. The record does not give: the amount of reagent, the time to read-out.

Purpose: 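Genome-wide fly cell screen for genes dengue virus requires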 (primary screen)
System: D.Mel-2 cells from Drosophila
Reagents: long dsRNA against Drosophila genes
Challenge: infection with dengue virus type 2; dose and infection time not stated
Measured: 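Cells stained for dengue envelope protein and imaged; percent of infected cells per well on duplicate plates, ranked by infection, with stained nuclei counted for cell number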
Reading the numbers: infection score: higher = more virus-infected cells; cell count: higher = more cells in the well
Active means: 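Very low infection ranking in both replicate wells (chance probability at most 0.065), then a retest showing infection dropped 1.5-fold or more at p below 0.05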
Meaning of the calls: active = confirmed: knock-down lowers infection; inactive = not picked or not confirmed

no.	Gene	dsRNA no.	infection score, replicate 1	infection score, replicate 2	cell count, replicate 1	cell count, replicate 2
1	CG1888	1	4.1	9.2	6201	6464
2	CG7409	1	2.09	11.5	6551	5975
3	CG7409	2	7.73	7.59	6363	6313
4	Pdp1	1	1.72	5.24	4061	4219
5	Pdp1	2	1.96	4.03	1531	1489
6	Pdp1	3	4.81	13.8	6253	6202
7	Pdp1	4	1.16	13.4	6185	6225
8	CG11300	1	12.9	21	6002	6076
9	CG14082	1	7.81	3.31	5813	5946
10	CG14082	2	1.94	3.67	6660	6651
11	CG14696	1	3.02	4.74	6334	6351
12	CG10631	1	14.2	4.57	6408	6674
13	CG31955	1	6.3	4.36	6314	6703
14	betaGlu	1	1.78	1.81	6066	6524
15	betaGlu	2	15.9	3.92	5041	5869
16	Fen1	1	7.29	15.8	6516	5751
17	Srrm1	1	0.52	1.89	6153	6624
18	udd	1	0.99	5.38	6533	6783
19	CG12402	1	0.99	0.97	6448	6726
20	CG12402	2	5.44	1.65	6340	6496
21	mtm	1	1.69	3.05	4138	4518
22	Pi4KIIalpha	1	2.25	8.75	7124	5931
23	Pi4KIIalpha	2	17.4	15.1	3587	5587
24	Pi4KIIalpha	3	9.81	8.24	5716	5573

Reformatted: entries from further up.
| Gene | dsRNA no. | infection score, replicate 1 | infection score, replicate 2 | cell count, replicate 1 | cell count, replicate 2 |
| --- | --- | --- | --- | --- | --- |
| CG11300 | 1 | 12.9 | 21 | 6002 | 6076 |
| CG14082 | 1 | 7.81 | 3.31 | 5813 | 5946 |
